A mixed list of measured activities; the numbers were collected in NIAID ChemDB.

All rows: whole-cell or culture tests; species: Mycobacterium tuberculosis

Inhibition is in % at the dose shown (toxicity tests: loss of growth or viability). MIC bound comes from a single tested concentration. An empty or dashed field is not shown. MIC50, MIC90 and the like: level of inhibition, or share of isolates inhibited. Rows are shuffled and stem from different studies. ECn is the concentration giving n% inhibition of infection, replication or growth. Zone: diameter of growth inhibition.

compound,measure,dose,read by,changes,setting,strain,cells,result
CO[C@H]1/C=C/O[C@@]2(C)Oc3c(C)c(O)c4c(=O)c(c5oc6cc(N7CCN(CC(C)C)CC7)cc(=O)c6nc5c4c3=C2O)NC(=O)/C(C)=C\C=C\[C@H](C)[C@H](O)[C@@H](C)[C@@H](O)[C@@H](C)[C@H](OC(C)=O)[C@@H]1C,MIC,,,,,TBSMI-1 (rifampin-susceptible),,<0.01 µg/mL
CN1CCN(c2cccc3c2C(=O)c2nc4ccccc4c(=O)n2-3)CC1,MIC,,,,,MDR 10038,,>5 µg/mL
CO[C@H]1/C=C/O[C@@]2(C)Oc3c(C)c(O)c4c(O)c(cc(OCC(N)=O)c4c3C2=O)NC(=O)/C(C)=C\C=C\[C@H](C)[C@H](O)[C@@H](C)[C@@H](O)[C@@H](C)[C@H](OC(C)=O)[C@@H]1C,MIC,,,,,H37Rv,,0.009 µg/mL
CNC(=S)N(c1ccc(Cl)c(Cl)c1)C(C)c1cccs1,MIC,,visual reading,,,,,100 µg/mL
CCCCC(CC)CN1CN(CC(CC)CCCC)CC(C)(NCCNCCc2ccccc2Cl)C1,MIC,,,,,,,12.5 µM
Cc1cc2c(cc1C)[n+](=O)c(C(=O)c1ccccc1)c(C)n2[O-],inhibition,6.25 µg/mL,BACTEC,,,H37Rv,,68%
CCCCCCCCCCC/C=N/NC(=O)C(=O)N/N=C/CCCCCCCCCCC,MIC bound,,BACTEC,,,H37Rv,,>12.5 µg/mL
CCN1CCc2c(sc(N)c2C(=O)Nc2ccc(C)cc2)C1,MIC,,resazurin,,,H37Rv,,>100 µg/mL
NC1=NC(=O)N2CC12,inhibition,12.5 µg/mL,BACTEC,,,H37Rv,,39%
CC(c1cccs1)N(C(=S)Nc1ccccc1)c1ccc(Cl)c(Cl)c1,MIC,,visual reading,,,,,25 µg/mL
CCN1CCc2c(sc(NC(=O)c3c(F)c(F)c(F)c(F)c3F)c2C(N)=O)C1,MIC,,turbidity,,,ATCC 35838 RIF-R2 rifampicin-resistant,,8.6 µM
CC(=O)c1c(CBr)n([O-])c2ccccc2[n+]1=O,inhibition,6.25 µg/mL,BACTEC,,,H37Rv,,27%
CCN1CCc2c(sc(NC(=O)c3c(F)c(F)c(F)c(F)c3F)c2C(=O)NC)C1,EC50,,turbidity,rpoB S522L mutant,,H37Rv,,1.5 µM
Cc1cccc(/C=N/NC(=S)N(C)C)n1.[Cl][Cu][Cl],MIC90,,,,,TF274,,0.78 µM
NNC(=O)c1ccncc1,MIC,,,,,Strain 5,,0.06 µg/mL
Cc1cccc(CSc2ccccn2)c1,MIC90,,,,,H37Rv,,>6.25 µg/mL
CN(C)CC=C(c1ccccc1)c1ccc(-c2ccc(Br)cc2)cc1,MIC,,,,,ALI 3082,,20 µg/mL
CCCCC(CC)CN1CN(CC(CC)CCCC)CC(C)(NCCNCc2ccccc2OCC)C1,MIC,,,,,,,12.5 µM
CC(=O)c1c(COc2ccc(Cl)cc2)n([O-])c2ccccc2[n+]1=O,inhibition,6.25 µg/mL,BACTEC,,,H37Rv,VERO,99%
CNC(=S)N(c1ccc(Cl)c(Cl)c1)C1CCCCC1,zone,1000 µg/mL,visual reading,,,,,12.07 mm
CN(C)C(=S)Sc1nsc(SC(=S)N(C)C)n1,MIC,,BACTEC,,,H37Rv,,≥128 µg/mL
Cc1cccc(C)c1Sc1ncnc2nc[nH]c12,MIC90,,,,,H37Rv,,>6.25 µg/mL
C[C@H]1COc2c(N3CCN(C)CC3)c(F)cc3c(=O)c(C(=O)O)cn1c23,MIC,,resazurin,INH RIF resistant,,Clinical isolate 109,,0.25 µg/mL
C1CCNCC1.S=C(S)N1CCCCC1,MIC,,,,,INH-r,,1.6 µg/mL
CO[C@H]1/C=C/O[C@@]2(C)Oc3c(C)c(O)c4c(O)c(cc(OCC(=O)Nc5ccc(Cl)cc5)c4c3C2=O)NC(=O)/C(C)=C\C=C\[C@H](C)[C@H](O)[C@@H](C)[C@@H](O)[C@@H](C)[C@H](OC(C)=O)[C@@H]1C,MIC,,,,,H37Rv,,0.15 µg/mL
Cc1ccccc1CSc1ncnc2nc[nH]c12,inhibition,6.25 µg/mL,,,,H37Rv,,0%
CN(C)C/C=C(/c1ccc(-c2ccc(Br)cc2)cc1)c1ccc([N+](=O)[O-])cc1,MIC,,,,,ALI 282,,18.5 µg/mL
CCOC(=O)c1c(NC(=O)c2c(F)c(F)c(F)c(F)c2F)sc2c1CCOC2,EC50,,turbidity,gyrA mutant (D94N),,H37Rv,,0.17 µM
COc1ccccc1CSc1ccncc1,MIC90,,,,,H37Rv,,>6.25 µg/mL
CO[C@H]1/C=C/O[C@@]2(C)Oc3c(C)c(O)c4c(O)c(c(/C=N/N5CCN(C)CC5)c(O)c4c3C2=O)NC(=O)/C(C)=C\C=C\[C@H](C)[C@H](O)[C@@H](C)[C@@H](O)[C@@H](C)[C@H](OC(C)=O)[C@@H]1C,MIC,,,,,Aoyama B,,5 µg/mL
O=C1c2ccccc2-n2c1nc1ccc(F)cc1c2=O,MIC,,,,,H37Rv,,1.3 µg/mL
CCN1CCc2c(sc(N)c2C(=O)Nc2ccccc2OC)C1,MIC,,resazurin,,,H37Rv,,>100 µg/mL
CC(=O)c1c(C)n([O-])c2ccc(Cl)cc2[n+]1=O,EC50,,BACTEC,,,H37Rv,VERO,<6.25 µg/mL
CCCCC(CC)CN1CN(CC(CC)CCCC)CC(C)(NCCNCc2cccc(OC)c2OC)C1,MIC,,,,,,,25 µM
CCCCN(CCCC)C(=O)COc1cc2c(O)c3c(O)c(C)c4c(c13)C(=O)[C@@](C)(O/C=C/[C@H](OC)[C@@H](C)[C@@H](OC(C)=O)[C@H](C)[C@H](O)[C@H](C)[C@@H](O)[C@@H](C)/C=C/C=C(/C)C(=O)N2)O4,MIC,,,,,H37Rv,,0.02 µg/mL
CC(c1ccccc1)C1(C)NC(=O)NC1=O,inhibition,12.5 µg/mL,BACTEC,,,H37Rv,,12%
CCNC(=O)c1c(NC(=O)c2c(F)c(F)c(F)c(F)c2F)sc2c1CCN(CC)C2,MIC,,resazurin,,,H37Rv,,5.8 µM
COc1ccc(OC)c(Sc2nc(Cl)nc3nc[nH]c23)c1.O,inhibition,6.25 µg/mL,,,,H37Rv,,36%
O=C1c2cc(F)ccc2-n2c1nc1ccccc1c2=O,MIC,,,,,H37Rv,,<1 µg/mL
CN(C)C/C=C(/c1ccc(Br)cc1)c1ccc(-c2ccc(Br)cc2)cc1,MIC,,,,,ALI 544,,34 µg/mL
CCCCCCCCCCCNCCNCCCc1ccccc1,MIC,,,,,,,25 µM
CC(=O)c1c(C)n([O-])c2ccccc2[n+]1=O,EC50,,BACTEC,,,H37Rv,VERO,<6.25 µg/mL
Cc1cccc(C)c1NC(=O)C(=O)C1C(=O)N(c2ccccc2)N=C1N,MIC bound,,resazurin,,,H37Rv,,>6.25 µg/mL
CC(C)(CO)NCCNCCc1ccccc1F,MIC,,,,,,,25 µM
CNC(=S)N(c1ccc(Cl)c(Cl)c1)C(C)C,zone,1000 µg/mL,visual reading,,,,,10.02 mm
NC(=O)c1cnccn1,MIC,,,,,Isolate 9132 monodrug-resistant,,>300 µg/mL
COc1c2c(c3c(c1CCC(=O)O)OC(C)(C)C=C3)OC(C)(C)C=C2,MIC,,BACTEC,,,H37Rv,,≥12.5 µg/mL
CN(C)C/C=C(\c1ccc(I)cc1)c1ccc(-c2ccc(Br)cc2)cc1,MIC,,,,,H37Ra,,9.5 µg/mL
CC(=O)NNc1nc(C)c(C(=O)NNC(=O)C(=O)Nc2c(C)cccc2C)s1,MIC bound,,BACTEC,,,H37Rv,,>12.5 µg/mL
CC(=O)c1c(CN2CCN(c3ccc([N+](=O)[O-])cc3)CC2)n([O-])c2cc(C)c(C)cc2[n+]1=O,inhibition,6.25 µg/mL,BACTEC,,,H37Rv,,0%
Cc1c2ccncc2c(CN2C(=O)c3ccccc3C2=O)c2c3ccccc3n(C)c12,inhibition,6.25 µg/mL,resazurin,,,H37Rv,,29%
O=C1c2cc(F)ccc2-n2c1nc1cc(F)ccc1c2=O,MIC,,,,,H37Rv,,<0.5 µg/mL
Cc1cccc2c(=O)c3cccc([C@H](C)C(=O)O)c3oc12,MIC bound,,BACTEC,,,H37Rv,,>12.5 µg/mL
CO[C@H]1/C=C/O[C@@]2(C)Oc3c(C)c(O)c4c(O)c(cc(OCC(=O)N(C)CCO)c4c3C2=O)NC(=O)/C(C)=C\C=C\[C@H](C)[C@H](O)[C@@H](C)[C@@H](O)[C@@H](C)[C@H](OC(C)=O)[C@@H]1C,MIC,,,,,H37Rv,,0.15 µg/mL
CCCCCCSc1nc(Cl)nc2nc[nH]c12,MIC,,,,,H37Ra,,>12.8 µg/mL
CC(=O)NC[C@H]1CN(c2ccc(N3CCOCC3)c(F)c2)C(=O)O1,MIC,,,,,Strain 5,,0.5 µg/mL
COc1ccc(CSc2ncnc3nc[nH]c23)cc1,inhibition,6.25 µg/mL,,,,H37Rv,,26%
O=C1c2cc(F)ccc2-n2c1nc1ccc(F)cc1c2=O,MIC,,,,,MDR 10038,,1 µg/mL
CN(C)C/C=C(\c1ccc(Cl)cc1)c1ccc(-c2ccc(Br)cc2)cc1,MIC,,,,,ALI 452,,≤5 µg/mL
CCOC(=O)c1c(NC(=O)c2c(F)c(F)c(F)c(F)c2F)sc2c1CCNC2=O,EC90,,turbidity,katG Y155 truncation mutant,,H37Rv,,4.7 µM
CCOP(=O)(O)C(Nc1ccc(N=Nc2ccccc2)cc1)c1ccc(C(Nc2ccc(N=Nc3ccccc3)cc2)P(=O)(O)OCC)cc1,MIC bound,,resazurin,,,H37Rv,,>6.25 µg/mL
N#Cc1c(NC(=O)c2c(F)c(F)c(F)c(F)c2F)sc2c1CCOC2,MIC,,turbidity,gyrA mutant (D94N),,H37Rv,,13 µM
CCOC(=O)C1=C(Nc2ccc(Cl)c(Cl)c2)OC/C1=N/NS(=O)(=O)c1ccc(C)cc1,inhibition,12.5 µg/mL,BACTEC,,,H37Rv,,8%
Nc1ccc2nc3n(c(=O)c2c1)-c1ccc(F)cc1C3=O,MIC,,,,,MDR 10038,,5 µg/mL
COc1ccc(Sc2ncccn2)cc1OC,MIC,,,,,H37Ra,,>12.8 µg/mL
Cn1c(=O)c(C(=O)Nc2nc(C34CC5CC(CC(C5)C3)C4)cs2)c(O)c2ccccc21,MIC bound,,resazurin,,,H37Rv,,>6.25 µg/mL
CCCCC(CC)CN1CN(CC(CC)CCCC)CC(C)(NCCNC2CCC2)C1,MIC,,,,,,,12.5 µM
CNC(=S)N(c1ccc(F)c(Cl)c1)C(C)c1cccs1,MIC,,visual reading,,,,,200 µg/mL
C[C@@H]1CN(c2c(F)c(N)c3c(=O)c(C(=O)O)cn(C4CC4)c3c2F)C[C@H](C)N1,MIC,,,,,891207,,0.2 µg/mL
C[C@@H]1[C@H]2C[C@@H](C[C@H]1NCCNCC(c1ccccc1)c1ccccc1)C2(C)C,MIC,,,,,,,6.25 µM
S=C(S)Nc1ccc(Cl)cc1,MIC,,,,,PZA-R,,12.5 µg/mL
CC(=O)c1c(C)n([O-])c2cc(C)c(C)cc2[n+]1=O,inhibition,6.25 µg/mL,BACTEC,,,H37Rv,VERO,100%
S=c1nc2[nH]c3ccccc3c2n[nH]1,MIC bound,,BACTEC,,,H37Rv,,>12.5 µg/mL
CCN1CCc2c(sc(NC(=O)c3c(F)c(F)c(F)c(F)c3F)c2C#N)C1,EC90,,turbidity,,,ATCC 35822,,22 µM
Nc1ccc2c(n1)NCC/C2=N\Nc1ccc(F)cc1,inhibition,12.5 µg/mL,BACTEC,,,H37Rv,,95%
CO[C@H]1/C=C/O[C@@]2(C)Oc3c(C)c(O)c4c(=O)c(c5oc6cc(N7CCN(CC(C)C)CC7)cc(=O)c6nc5c4c3=C2O)NC(=O)/C(C)=C\C=C\[C@H](C)[C@H](O)[C@@H](C)[C@@H](O)[C@@H](C)[C@H](OC(C)=O)[C@@H]1C,inhibition,1 µg/mL,,,inside macrophages,FUJII,,94.6%
CC(/C=N/Nc1ccc([N+](=O)[O-])cn1)=N\Nc1ccc([N+](=O)[O-])cn1,MIC bound,,BACTEC,,,H37Rv,,>12.5 µg/mL
O=C1c2ccccc2-n2c1nc1ccsc1c2=O,MIC,,,,,H37Rv,,5 µg/mL
CC(C)(C)c1cc(C(C)(C)O)c2c(c1)C(C)(C)OS2(C)Cl,inhibition,12.5 µg/mL,BACTEC,,,H37Rv,,57%
COc1ccc(OCc2c(C(C)=O)[n+](=O)c3ccccc3n2[O-])cc1,EC50,,BACTEC,,,H37Rv,VERO,<6.25 µg/mL
COc1cc(N=C2C=CC(=O)C=C2)c2ncccc2c1,MIC bound,,BACTEC,,,H37Rv,,>12.5 µg/mL
CN(C)C/C=C(\c1ccc(O)cc1)c1ccc(-c2ccccc2)cc1,MIC,,,,,ALI 3415,,49 µg/mL
COc1cc2c(cc1OC)C(O)C(O)(CO)C(C(=O)O)C2c1cc(OC)c(OC)c(OC)c1,MIC,,BACTEC,,,H37Rv,,≥12.8 µg/mL
CC(C)(C)OC(=O)N1CCN(c2ccc3c(c2)-n2c(nc4ccccc4c2=O)C3=O)CC1,MIC,,,,,H37Rv,,>5 µg/mL